Consider 10 molecules from the supplement of paper PMC9931576.

Test in all cases: pseudovirus neutralization IC50; higher = weaker neutralization
Assay [1] deals with SARS-CoV-2 Omicron BA.1 spike pseudovirus. As for the experimental part:
(§1)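 Single-round VSV luciferase pseudovirus mixed with antibody dilutions for 1 h and put on Huh-7 cells for about a day; IC50 from the dose curve.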

For assay [2], the target named is SARS-CoV-2 Omicron BA.2 spike pseudovirus. How it is done:
as §1

Assay [3] deals with SARS-CoV-2 Omicron BA.2.75 spike pseudovirus. How it is done: as §1
The target of assay [4] is SARS-CoV-2 Omicron BA.2.75.2 spike pseudovirus. How it is done:
as §1

The target of assay [5] is SARS-CoV-2 Omicron BA.5 spike pseudovirus. As for the experimental part:
as §1

Assay [6] has as its target SARS-CoV-2 Omicron BM.1.1.1 spike pseudovirus. As for the experimental part: as §1
The target in assay [7] is SARS-CoV-2 Omicron BQ.1.1 spike pseudovirus. As for the experimental part:
as §1

The target of assay [8] is SARS-CoV-2 Omicron BR.2 spike pseudovirus. As for the experimental part: as §1
Assay [9] has as its target SARS-CoV-2 Omicron CA.1 spike pseudovirus. How it is done: as §1
Assay [10] concerns the target SARS-CoV-2 Omicron XBB spike pseudovirus. As for the experimental part:
as §1

The target of assay [11] is SARS-CoV-2 early D614G spike pseudovirus. How it is done:
as §1

Human monoclonal antibodies against the spike receptor-binding domain (heavy:light variable regions). IC50 against pseudoviruses bearing the spike of naturally observed variants; lower = stronger; >10 µg/ml means not reached at the top dose. No active / inactive call. The stated detection limit is 0.0005 µg/ml; values near or below 0.001 µg/ml lie at the floor of the assay.

B1: BD58-0569 (protein)
chain 1: QVQLVQSGAEVKKPGASVKVSCKLSGYTLTELSMHWVRQTPGKGLEWMGGFDPAEDKTVYAQKFQGRVTMTEDTSADTAYMELSSLRSEDTAVYYCATGVPAVIFRFDPWGQGTQVIVSS
chain 2: QPVLTQPPSASASLGASVTLTCTLSSGYNNYKVDWYQQRPGKGPRFVMRVGTGGIVGSKGDGIPDRFSVLGSGLNRYLTIKNIQEEDESDYHCGTDHGTGSDFVVVFGGGTKLTVL
Consider B1, for which the “pseudovirus neutralization IC50” value in assay [1] is 0.216 µg/mL; in [2], 0.41 µg/mL; in assay [3], above 10 µg/mL; in assay [4] it was above 10 µg/mL; in assay [5] it was above 10 µg/mL; in assay [6] it was above 10 µg/mL. In addition, the “pseudovirus neutralization IC50” value in [7], in [8], in assay [9], in assay [10] and in assay [11] was above 10 µg/mL throughout.

B2: BD56-1184 (protein)
chain 1: EVQLVESGGGLVKPGGSLRLSCAASGFTFSGYSMNWVRQAPGKGLEWVSSISSSSSYIYYADSVKGRFTVSRDNAKNSLYLQMNSLRAEDTAVYYCVSMPDNYAYVALDYWGQGTLVTVSS
chain 2: QPLLTQPPSASASLGASVTLTCTLSSGYSNYEVDWYQQRPGKGPRFVMRVGTGGIVGSKGDGIPDRFSVLGSGLNRYLTIKNIQEEDESDYHCGADHGSGDNFSWVFGGGTKLTVL
As to B2, the “pseudovirus neutralization IC50” value in assay [1] is 0.0021 µg/mL; in [2] it was 0.00547 µg/mL; in [3] it was 0.00373 µg/mL; in assay [4], above 10 µg/mL; in [5], 0.0726 µg/mL; in [6] it was above 10 µg/mL. Besides, the “pseudovirus neutralization IC50” value in assay [7] was 0.276 µg/mL; in assay [8] it was 0.00697 µg/mL; in assay [9], above 10 µg/mL; in assay [10], above 10 µg/mL; in assay [11] it was above 10 µg/mL.

B3: BD56-1208 (protein)
chain 1: QLQLQESGPGLVKPSETLSLTCTVSGASISARGYSWGWIRQPPGKGLEWIGSIYYRGSTFYNPSLKSRVTISVDTSKNQFSLKVSSVTAADTAVFYCATFHILTHWADSWGQGTLVTVSS
chain 2: NFMLTQPHSVSESPGKTVTISCTGSSGSIASNYVQWYQQRPGSAPTTVIYEDNQRPSGVPDRFSGSIDSSSKSASLTISGLKTEDEAYYYCQSFDGSFVVFGGGTKLTVL
On to B3, for which the “pseudovirus neutralization IC50” value was 1.03 µg/mL in assay [1]; 0.442 µg/mL in assay [2]; above 10 µg/mL in [3]; above 10 µg/mL in assay [4]; 0.363 µg/mL in assay [5]; above 10 µg/mL in assay [6]. In addition, the “pseudovirus neutralization IC50” value in assay [7], in assay [8], in assay [9], in assay [10] and in assay [11] was above 10 µg/mL throughout.

B4: BD56-1349 (protein)
chain 1: EVQLVESGGGLVQPGGSLRLSCAASGFTFSSYWMNWVRQAPGRGLEWVANIKQDGSEKYYVDSVKGRFTISRDNAKNSLYLQMNSLRAEDTAVYYCVTHGDEVYWGQGTLVTVSS
chain 2: DIQMTQSPSSLSASVGDRVTITCQASQDISTYLNWFQQKPGKAPKLLIYDASNLETGVPSRFSGSGSGTDFTFTISSLQPEDIATYYCQQYDNLGPTFGGGTKVEIK
Turning to B4, the “pseudovirus neutralization IC50” value in assay [1] is above 10 µg/mL; in [2], 0.00994 µg/mL; in [3] it was 0.31 µg/mL; in assay [4] it was 0.833 µg/mL; in [5] it was 0.0701 µg/mL; in assay [6] it was above 10 µg/mL. In addition, the “pseudovirus neutralization IC50” value in assay [7] is 0.851 µg/mL; in assay [8], 0.382 µg/mL; in [9] it was 0.701 µg/mL; in assay [10], above 10 µg/mL; in assay [11] it was above 10 µg/mL.

B5: BD56-1210 (protein)
chain 1: EVQLVESGGGLVQPGRSLRLSCAASGFTFDDHAMHWVRQAPGKGLEWVSGITWNTDNIGYADSVKGRFTISRDNAKNSLYLQMNSLRVEDTALYYCVKDIVDSGWYYFDYWGQGTLVIVSS
chain 2: QSALTQPASVSGSPGQSLTISCTGTSSDIGSYILVSWYQQHPGKAPKLMIYEASKRPSGVSNRFSGSKSGNTASLTISGLQPEDEADYYCCSYAGSTTLVFGGGTKLTVL
For the molecule B5, the “pseudovirus neutralization IC50” value in assay [1] is 0.191 µg/mL; in [2] it was 0.0294 µg/mL; in assay [3], above 10 µg/mL; in assay [4], 3.07 µg/mL; in assay [5], above 10 µg/mL; in assay [6] it was above 10 µg/mL. The “pseudovirus neutralization IC50” value in assay [7], in assay [8], in assay [9], in assay [10] and in assay [11] was above 10 µg/mL each time.

B6: BD56-1193 (protein)
chain 1: EVQLVESGGGLVQPGGSLRLSCAASGFIFSNYWMSWVRQAPGKGLEWVANINQDGSEKYYVDSVKGRFTISRDNAKKSLYLQMNSLRAEDTAVYYCARGADNYDSSHYCGYWGQGTLVTVSS
chain 2: SYELTQPPSVSVSPGQTARITCSGDALPNQYAYWYQQKPGQAPVLVIYKDSERPSGIPERFSGSSSGTTVTLTISGVQAEDEADYYCQSADSSGTYPVVFGGGTKLTVL
Turning to B6, the “pseudovirus neutralization IC50” value in [1] was 0.00554 µg/mL; in assay [2], 0.00274 µg/mL; in assay [3], 0.0287 µg/mL; in assay [4], 0.062 µg/mL; in assay [5], 0.00136 µg/mL; in [6] it was 0.0216 µg/mL. The “pseudovirus neutralization IC50” value was 0.00366 µg/mL in assay [7]; 0.0313 µg/mL in assay [8]; 0.0397 µg/mL in assay [9]; above 10 µg/mL in assay [10]; above 10 µg/mL in [11].

B7: BD58-0561 (protein)
chain 1: EVQLVESGGGLVQPGGSLRLSCAASGFRFSSYDMHWVRQATGQGLEWVSVIGHGGDTYYAGSVRGRFTISRENAKNSVYLQMNSLRAGDTAVYYCARSPPPLDYGDHFIDYWGQGTLVTVSS
chain 2: QSVLTQPPSASGTPGQRVTISCSGSSSNIGSHYVYWYQQLPGTAPKLLIYRNNQRPSGVPDRFSGSKSGTSASLAISGPRSEDEAEYYCATWDASLWVFGTGTKVTVL
B7: the “pseudovirus neutralization IC50” value in assay [1] is 0.00238 µg/mL; in assay [2], 0.00335 µg/mL; in assay [3], 0.696 µg/mL; in [4] it was above 10 µg/mL; in assay [5], 0.545 µg/mL; in [6], above 10 µg/mL. The “pseudovirus neutralization IC50” value in [7] was above 10 µg/mL; in [8], 1.79 µg/mL; in assay [9] it was above 10 µg/mL; in [10], above 10 µg/mL; in assay [11], above 10 µg/mL.

B8: BD56-1191 (protein)
chain 1: EVQLVESGGGLVQPGRSLRLSCAASGFTFDDYAMHWVRQAPGKGLEWVSGISWNGDNIDYAGSVKGRFTISRDNAKNSLYLQMNSLRAEDTALYYCAKTNGIREDYIGHDVFDMWGQGTMVTVSS
chain 2: SYELTQPPSVSVSPGQTARITCSGDALPKKYAYWYQQKSGQAPVLVIYEDSKRPSGIPERFSGSSSGTMATLTISGAQVEDEADYYCYSTDSSGYPLFGGGTKLTVL
As to B8, the “pseudovirus neutralization IC50” value in assay [1] is 0.288 µg/mL; in assay [2] it was 0.361 µg/mL; in assay [3], above 10 µg/mL; in assay [4], above 10 µg/mL; in assay [5] it was above 10 µg/mL; in [6], above 10 µg/mL. For the same molecule, the “pseudovirus neutralization IC50” value in assay [7], in assay [8], in assay [9], in assay [10] and in [11] was above 10 µg/mL each time.

B9: BD56-1183 (protein)
chain 1: EVQLLESGGGLVQPGGSLRLSCAASGFTFSSSAMSWVRQAPGKGLEWVSAIKGSGGSTYYADSVKGRFTISRDNSKNTLYLQMSSLRAEDTAVYYCARLDILTGYFGPWGQGTLVTVSS
chain 2: NFMLTQPHSVSESPGKTVTISCTGSSGSIAINYVQWYQQRPGSAPTTVIYEDNQRPSGVPDRFSGSIDSSSNSASLTISGLKTEDEADYYCQSYDSSNLWVFGGGTKLTVL
For B9, the “pseudovirus neutralization IC50” value in [1] came out at 1.83 µg/mL; in assay [2], 0.25 µg/mL; in assay [3], 0.91 µg/mL; in assay [4], 0.886 µg/mL; in assay [5] it was 0.228 µg/mL; in assay [6], 0.742 µg/mL. Also, the “pseudovirus neutralization IC50” value in [7] was 0.943 µg/mL; in [8], 1.16 µg/mL; in assay [9], 0.601 µg/mL; in assay [10], 1.17 µg/mL; in assay [11], above 10 µg/mL.

B10: BD56-1201 (protein)
chain 1: QVQLVESGGGVVQPGRSLRLSCAASGFTFSSYGMHWVRQAPGKGLEWVAVISYDGDGSNKYYADSVKGRFTISRDNSRNTLYLQMNSLRAEDTAVYYCVKGGEYQLLDPDWYYFGYWGQGTLVTVSS
chain 2: AIRITQSPSSLSASTGDRVTITCRASQGISSYLAWYQQKPGKAPKLLIYAASTLQSGVPSRFSGSGSGTDFTLTINHLQSEDFATYYCQQYYSYPLTFGGGTKVEIK
Turning to B10, the “pseudovirus neutralization IC50” value in [1] is 0.043 µg/mL; in assay [2] it was 0.067 µg/mL; in assay [3], above 10 µg/mL; in [4], above 10 µg/mL; in assay [5], 2.03 µg/mL; in [6] it was above 10 µg/mL. The “pseudovirus neutralization IC50” value in assay [7], in [8], in assay [9], in [10] and in assay [11] was above 10 µg/mL each time.
